Measured values from several laboratories, pooled; numbers as filed in NIAID ChemDB.

Common to all: whole-cell or culture tests; species: Toxoplasma gondii; measure: EC50

Lines come from different laboratories, so protocols vary.

SMILES,strain,cell line,value
NC1[C@H]2CN(c3cc4c(cc3F)c(=O)c(C(=O)O)cn4-c3ccc(F)cc3F)C[C@@H]12,,,4.3 µg/mL
COc1cccc2c1C(=O)C=CC2=O,,,2.3 µg/mL
CN1CCC(c2cc(-c3ccncc3)c(-c3ccc(F)cc3)[nH]2)CC1,TG-PKG FLAG T761Q,,5 µM
CCCCCCCCCCC1(C)SC(=O)C(C)=C1O,RH,,28.8 µM
COc1ccc(OCc2ccccc2C(=O)NC(=S)Nc2ccccc2)cc1,RH beta-gal,Human foreskin fibroblasts (HFF),75 µM
CC1(C)CC2=C(O1)C(=O)C=CC2=O,,THP-1,0.007 µM
O=C1C(=O)c2ccccc2C(O)=C1C1CCC(c2ccc(Cl)cc2)CC1,RH atovaquone-resistant,,0.75 µM
CCOC(=O)c1cc2c(OC)ccc(OC)c2[nH]1,RH,THP-1,0.0011 µM
O=C(NC(=S)Nc1ccc(Cl)cc1)c1ccccc1COc1ccc(Cl)cc1,RH beta-gal,Human foreskin fibroblasts (HFF),7 µM
Cc1c(F)c(N2C[C@@H]3C(N)[C@@H]3C2)nc2c1c(=O)c(C(=O)O)cn2C1CC1,,,0.6 µg/mL
O=C1c2cc(=O)[nH]cc2C(=O)c2c(O)cccc21,,,1.86 µg/mL
O=C1c2cc3scnc3cc2C2=NCCn3ccc1c32,RH,THP-1,0.0051 µM
CCc1nc(N)nc(N)c1-c1ccc(Cl)cc1,RH,,0.04 µg/mL
[N-]=[N+]=NCCn1ccc2c(O)ccc(O)c21,RH,THP-1,0.0031 µM
Nc1ccc(S(=O)(=O)Nc2ncc(O)cn2)cc1,,,>500 µg/mL
Cc1noc(NS(=O)(=O)c2ccc(N)cc2)c1C,RH,,6.4 µg/mL
O=C1C=C(Br)C(=O)c2c(O)cccc21,,,1.28 µg/mL
COc1ccc(NC(=S)NC(=O)c2ccccc2COc2ccc(F)cc2)cc1,RH beta-gal,Human foreskin fibroblasts (HFF),87 µM
CC1(C)CC2=C(O1)C(=O)c1cc3scnc3cc1C2=O,,THP-1,0.0041 µM
Cn1cc2c(cc1=O)C(=O)c1ccccc1C2=O,,,1.94 µg/mL
CC1(C)Cc2cccc(O)c2O1,,THP-1,0.0041 µM
COc1ccc(OC)c2[nH]ccc12,RH,THP-1,0.0007 µM
Cc1cc2c(o1)C(=O)c1cc(=O)[nH]cc1C2=O,,,1.2 µg/mL
O=C1c2cc3ncsc3cc2C2=NCCn3ccc1c32,RH,THP-1,0.0027 µM
Cc1[nH]c(=O)c(C)c2c1C(=O)c1cccc(O)c1C2=O,,,1.56 µg/mL
CCCCCCCCCCCCCCCCC1(C)SC(=O)C(CCC)=C1O,RH,,1.96 µM
C[C@@H]1CN(c2c(F)c(N)c3c(=O)c(C(=O)O)cn(C4CC4)c3c2F)C[C@H](C)N1,,,40 µg/mL
CC1(C)CC2=C(O1)C(=O)C=C(Br)C2=O,,THP-1,0.0032 µM
COc1ccc(OCc2ccccc2C(=O)NC(=S)Nc2c(Cl)cccc2Cl)cc1,RH beta-gal,Human foreskin fibroblasts (HFF),73 µM
Cc1c2c(c[nH]c1=O)C(=O)c1cccc(O)c1C2=O,,,1.76 µg/mL
COc1ccc(OCc2ccccc2C(=O)NC(=S)Nc2ccccc2C)cc1,RH beta-gal,Human foreskin fibroblasts (HFF),43 µM
COc1c(N2C[C@@H]3C(N)[C@@H]3C2)c(F)cc2c(=O)c(C(=O)O)cn(C3CC3)c12,,,1.3 µg/mL

Blank or dashed fields: not listed here. ECn: concentration that inhibits the pathogen or its effect by n%.